A mixed list of measured activities; the numbers were collected in NIAID ChemDB.

Shared fields: host cell toxicity; cell line: SupT1; read-out: CC50

Lines come from different laboratories, so protocols vary. CCn: concentration that lowers growth or viability of the cells by n%. Blank or dashed fields: not listed here.

smiles,method,result
CC(C)Nc1nc2cc(Cl)c(Cl)cc2n1[C@H]1O[C@@H](CO)[C@H](O)[C@@H]1O,-,>105 µM
C=C1CN(S(=O)(=O)c2ccccc2)CCCN(Cc2ccccc2)CCCN(S(=O)(=O)c2ccccc2)C1,trypan blue / propidium iodide,>75 µM
Nc1nc2c(ncn2[C@@H]2C[C@H](CO)[C@H]2CO)c(=O)[nH]1,-,15 µM
CC(C)CCCCCCC[C@@H]1CC(=O)N[C@@H](CCC(=O)O)C(=O)N[C@@H](CC(C)C)C(=O)N[C@H](CC(C)C)C(=O)N[C@@H](C(C)C)C(=O)N[C@@H](CC(=O)O)C(=O)N[C@H](CC(C)C)C(=O)N[C@@H](C(C)C)C(=O)O1,WST / absorbance,87 µM
CC(C)=CCC/C(C)=C/CC/C(C)=C/Cc1c(O)cc2c(c1O)CN(CCO)C2=O,WST / absorbance,20.4 µM
CC(C)CCCCCCCCC[C@@H]1CC(=O)N[C@@H](CCC(=O)O)C(=O)N[C@@H](CC(C)C)C(=O)N[C@H](CC(C)C)C(=O)N[C@@H](C(C)C)C(=O)N[C@@H](CC(=O)O)C(=O)N[C@H](CC(C)C)C(=O)N[C@@H](CC(C)C)C(=O)O1,WST / absorbance,>100 µM
Nc1ccn(C[C@@H](CO)OCP(=O)(O)O)c(=O)n1,neutral red,>159 µM
C=C1CN(S(=O)(=O)c2ccc(C)cc2)CCCN(CC(C)CC)CCCN(S(=O)(=O)c2ccc(C)cc2)C1,trypan blue / propidium iodide,13.1 µM
CC(C)CCCCCCCC[C@@H](O)CC(=O)N[C@@H](CCC(=O)O)C(=O)N[C@@H](CC(C)C)C(=O)N[C@H](CC(C)C)C(=O)N[C@H](C(=O)N[C@@H](CC(=O)O)C(=O)N[C@H](CC(C)C)C(=O)N[C@@H](CC(C)C)C(=O)O)C(C)C,WST / absorbance,>100 µM
Cc1ccc(S(=O)(=O)N2CCCN(Cc3ccccc3)CCCN(S(=O)(=O)c3ccc(C)cc3)CC(=O)C2)cc1,trypan blue / propidium iodide,>75 µM
COC1=CC(=O)c2c(O)c(C)c3cc(C)oc3c2C1=O,MTT,7.5 µg/mL
C=C1CN(S(=O)(=O)c2ccc(C)cc2)CCCN(CC2CCCCC2)CCCN(S(=O)(=O)c2ccc(C)cc2)C1,trypan blue / propidium iodide,37.9 µM
COc1cc(O)c2c(c1O)C1O[C@]3(C)C[C@H]1[C@@H](CO3)C2=O,MTT,250.4 µg/mL
Nc1ncc2c(ncn2COC(CO)CO)n1,-,0.051 µM
C=C1CN(S(=O)(=O)c2ccc(C)cc2)CCCN(CC2CC=CCC2)CCCN(S(=O)(=O)c2ccc(C)cc2)C1,trypan blue / propidium iodide,40.4 µM
C[C@H]1CC[C@@H]2C(C)(C)[C@H](O)CC[C@]2(C)[C@@]12Cc1c(O)cc3c(c1O2)CN(CCCC(=O)O)C3=O,WST / absorbance,100.2 µM
C=C1CN(S(=O)(=O)c2ccc(N)cc2)CCCN(Cc2ccccc2)CCCN(S(=O)(=O)c2ccc(N)cc2)C1,trypan blue / propidium iodide,49.2 µM
CC(C)CCCCCCCC[C@@H]1CC(=O)N[C@@H](CCC(=O)O)C(=O)N[C@@H](CC(C)C)C(=O)N[C@H](CC(C)C)C(=O)N[C@@H](C(C)C)C(=O)N[C@@H](CC(=O)O)C(=O)N[C@H](CC(C)C)C(=O)N[C@@H](CC(C)C)C(=O)O1,WST / absorbance,83.5 µM
Cc1ccc(S(=O)(=O)N2CCCN(Cc3ccccc3)CCCN(S(=O)(=O)c3ccc(C)cc3)CC(CO)C2)cc1,trypan blue / propidium iodide,>75 µM
CCC(C)CCCCCCCC[C@@H]1CC(=O)N[C@@H](CCC(=O)OC)C(=O)N[C@@H](CC(C)C)C(=O)N[C@H](CC(C)C)C(=O)N[C@@H](C(C)C)C(=O)N[C@@H](CC(=O)O)C(=O)N[C@H](CC(C)C)C(=O)N[C@@H](CC(C)C)C(=O)O1,WST / absorbance,91 µM
Nc1nc2c(ncn2COC(CO)CO)c(=O)[nH]1,-,50 µM
C=C1CN(S(=O)(=O)c2ccc(C)cc2)CCCN(Cc2ccccn2)CCCN(S(=O)(=O)c2ccc(C)cc2)C1,trypan blue / propidium iodide,>75 µM
O=C(O)C1=CC(=C(c2ccc(O)c(C(=O)O)c2)c2ccc(O)c(C(=O)O)c2)C=CC1=O,-,52 µM
OC[C@H]1O[C@@H](n2c(Br)nc3cc(Cl)c(Cl)cc32)[C@H](O)[C@@H]1O,neutral red,69 µM
CC(C)=CCC/C(C)=C/CC/C(C)=C/Cc1c(O)cc2c(c1O)CNC2=O,WST / absorbance,99.5 µM
O=c1[nH]c(=O)n([C@H]2C[C@H](O)[C@@H](CO)O2)cc1/C=C/Br,-,20 µM

Repeating the final 2 entries:

smiles | method | result
CC(C)=CCC/C(C)=C/CC/C(C)=C/Cc1c(O)cc2c(c1O)CNC2=O | WST / absorbance | 99.5 µM
O=c1[nH]c(=O)n([C@H]2C[C@H](O)[C@@H](CO)O2)cc1/C=C/Br | - | 20 µM